For this assay, the target named is IL2 receptors expressed on Raji cells. Nature of the assay: cell-based or functional assay.

The substance “C215FabSEAD227A-Q-hIL2 (from UniProt P0A0L2 25-257; P60568 21-153)” yielded a potency in killing of Raji cells (SDCC assay), against C215FabSEAD227A (fold higher potency) of 10.

These data come from patent US20050226885A1.
